Laboratory results as given in patent publication US20100099198A1 (priority 2008, published 2010).

Tests used:
[1] = molecular target: (M113R)7(T145R)7 αHL protein pore (Staphylococcus aureus, UniProt P09616, M139R/T171R); settings: for signal (current blocking events) in sensor 3: sensor 3 of four-pore array = (M113R)7(T145R)7 pore
[2] = molecular target: (M113F)7(T145F)7(K147N)7 αHL protein pore (Staphylococcus aureus, UniProt P09616, K173N/M139F/T171F); settings: sensor 1 of four-pore array = (M113F)7(T145F)7(K147N)7 pore
[3] = test system: double-channel consisting of a single (M113R)7(T145R)7 pore and a single (M113F)7(T145F)7(K147N)7 protein; settings: single component present, -40 mV, combined open channel current -51.0 pA, FIG. 9b
[4] = molecular target: (M113E)7 αHL protein pore (Staphylococcus aureus, UniProt P09616, M139E); settings: in (M113E)7; 1 M NaCl, 10 mM Tris.HCl pH 7.5; FIG. 6

Substance	signal (current blocking events) in sensor 3 [1]	mean residual current of events ([1]; single (M113R)7(T145R)7 pore (sensor 1 of FIG. 8), -40 mV, 20 μM DTPMPA, open channel current -27.1 pA)	signal (current blocking events) in sensor 1 [2]	mean residual current of current blockage events [3]	dwell time ([1]; in (M113R)7(T145R)7, 1 M NaCl, 10 mM Tris.HCl pH 7.5, FIG. 6)	dwell time [4]
Diethylenetriaminepentamethylenephosphonic acid heptasodium salt	signal	−4.0 pA	no signal	−28.1 pA	–	–
Y-Y-Y-Y-Y-Y	–	–	–	–	3.1 ms	0.43 ms
cyclo(P-G)3	no signal	–	caused current blocking events	–	–	–
